Pooled drug test results. Numbers come from NIAID ChemDB, via PubChem.

Common to all: whole-cell or culture tests; species: Herpes simplex virus 1; cell line: VERO; measure: EC50

Conditions beyond the fields shown may differ between rows. An empty or dashed field is not shown. ECn is the concentration giving n% inhibition of infection, replication or growth.

structure	strain or isolate	read by	conditions	result
CC(=O)CCC(=O)O[C@H]1C[C@H](n2cc(/C=C/Br)c(=O)[nH]c2=O)O[C@@H]1COP1(=O)OCc2cccc(C)c2O1	KUPKA (TK+)	plaque count		1.57 µg/mL
CCOP(=O)(Oc1ccc(Cl)cc1)C(=O)Oc1ccccc1	C42	plaque count		>500 µM
O=c1c2cnn(-c3ccccc3)c2nc2n1N=C(c1ccc(Cl)cc1)CN2c1ccccc1		plaque count		15 µg/mL
Nc1nc2c(ncn2COCCOP(=O)(O)C(=O)O)c(=O)[nH]1	L2	cytopathic effect		35.7 µM
O=c1c2cnn(-c3ccccc3)c2nc2n1N=C(c1ccc(Br)cc1)CN2c1ccccc1		plaque count		20 µg/mL
COc1ccc(Cn2c(O)c(N=O)c(=O)[nH]c2=O)cc1	Leningrad/248/88	cytopathic effect		>100 µg/mL
Nc1nc2c(ncn2[C@@H]2C[C@H](CO)[C@H]2CO)c(=O)[nH]1	KOS	cytopathic effect		18 µg/mL
N#CCSc1nsc(-c2ccccc2)c1C#N	F	plaque count		>10 µg/mL
Nc1ncnc2c1ncn2C[C@@H](CO)OCP(=O)(O)O	KOS	cytopathic effect		0.67 µg/mL
CCCCCCCCC#Cc1cn(CC=C(CO)CO)c(=O)[nH]c1=O	F	plaque count		>10 µM
O=c1[nH]c(=O)n([C@H]2C[C@H](O)[C@@H](COP3(=O)OCc4ccccc4O3)O2)cc1/C=C/Br	B2006 (TK-)	plaque count		>128 µg/mL
CSc1nsc(-c2ccccc2)c1C(N)=O	F	plaque count		>250 µg/mL
Cc1nn2c(=O)c3cnn(-c4ccccc4)c3nc2n1-c1ccccc1		plaque count		31 µg/mL
CC1=C(C)[C@](CO)(c2ccccc2)C[C@H]1n1cnc2c(N)ncnc21		cytopathic effect		78.5 µg/mL
N#Cc1c(Cl)nc2nc(Cl)nc(Cl)c2c1-c1ccc(Br)cc1		plaque count		50 µg/mL
NC1=Nc2c(ncn2CCC(/C=C/P(=O)(O)O)CO)C(=O)C1		cytopathic effect		>250 µM
N#Cc1c(NC(=S)Nc2ccccc2)nc2[nH]c(=O)[nH]c(=O)c2c1-c1ccc(Cl)cc1		plaque count		8 µg/mL
O=c1[nH]c(=O)n([C@H]2C[C@H](O)[C@@H](CO)O2)cc1/C=C/Br	KOS	cytopathic effect		>100 µg/mL
Nc1nc2c(ncn2COCCO)c(=O)[nH]1	F	plaque count		0.11 µM
CCCCCc1ccc(-c2cc3cn(CC=C(CO)CO)c(=O)nc3o2)cc1	F	plaque count		4.8 µM
CCCSc1nsc(-c2ccccc2)c1C(N)=O	F	plaque count		>300 µg/mL
O=Nc1c(O)n(Cc2ccc(F)cc2)c(=O)[nH]c1=O	Leningrad/248/88	cytopathic effect		>100 µg/mL
C=C(/C=C/P(=O)(O)O)CCn1cnc2c(=O)[nH]c(N)nc21	HF	cytopathic effect		>125 µM
Cc1cccc2c1OP(=O)(OC[C@H]1O[C@@H](n3cc(/C=C/Br)c(=O)[nH]c3=O)C[C@@H]1OC(=O)[C@H](C)N)OC2	B2006 (TK-)	plaque count		>128 µg/mL
O=c1c2cnn(-c3ccccc3)c2nc2n1N=C(c1ccc(F)cc1)CN2c1ccccc1		plaque count		21 µg/mL
CCCCCc1ccc(C#Cc2cn(C/C=C/C(O)CO)c(=O)[nH]c2=O)cc1	F	plaque count		8.5 µM
N#Cc1c(NC(=O)Nc2ccccc2)nc2[nH]c(=O)[nH]c(=O)c2c1-c1ccc(Br)cc1		plaque count		20 µg/mL
Cc1cccc2c1OP(=O)(OC[C@H]1O[C@@H](n3cc(/C=C/Br)c(=O)[nH]c3=O)C[C@@H]1OC(=O)[C@@H](N)C(C)C)OC2	B2006 (TK-)	plaque count		>128 µg/mL
COc1c2c(cc3ccoc13)C(=O)[C@H]1c3cc4c(cc3OC[C@H]1O2)OCO4	KOS	plaque count		18 µg/mL
O=c1[nH]c(=O)c2c(-c3cccc([N+](=O)[O-])c3)c3c(=O)[nH]cnc3nc2[nH]1		plaque count		10 µg/mL
O=c1c(O)c(-c2ccccc2)oc2cc(O)cc(O)c12				>15 µg/mL
COc1cc(NC(=O)Nc2cccc(CNC(=O)O[C@H]3CCOC3)c2)ccc1-c1cnco1	E-377	plaque count	6 d	6.3 µM
NC(=O)c1cn([C@@H]2C[C@H](CCP(=O)(O)O)C[C@H]2O)nn1	F	plaque count		>100 µM
COc1ccc(-c2c(C#N)c(N)nc3[nH]c(=O)[nH]c(=O)c23)cc1OC		plaque count		50 µg/mL
NC(=O)c1nnn([C@@H]2C[C@H](CCP(=O)(O)O)C[C@H]2O)c1N	F	plaque count		>100 µM
CCCSc1nsc(-c2ccccc2)c1C#N	F	plaque count		>200 µg/mL
O=Nc1c(O)n(-c2cccc(C(F)(F)F)c2)c(=O)[nH]c1=O	Leningrad/248/88	cytopathic effect		100 µg/mL
Nc1nc2c(ncn2COCCO)c(=O)[nH]1	MacIntyre	plaque count		0.61 µM
CC1=C(C)[C@](CO)(c2ccccc2)C[C@H]1n1ccc(N)nc1=O		cytopathic effect		>100 µg/mL
O=c1[nH]c(=O)n([C@H]2C[C@H](O)[C@@H](COP3(=O)OCc4cc5ccccc5cc4O3)O2)cc1/C=C/Br	KUPKA (TK+)	plaque count		0.14 µg/mL
Nc1ccn(C[C@@H](CO)OCP(=O)(O)O)c(=O)n1	KOS	cytopathic effect		0.46 µg/mL
NC1=Nc2c(ncn2CCCCCP(=O)(O)O)C(=O)C1		cytopathic effect		>250 µM
Cc1cccc2c1OP(=O)(OC[C@H]1O[C@@H](n3cc(/C=C/Br)c(=O)[nH]c3=O)C[C@@H]1OC(=O)[C@@H](C)N)OC2	KUPKA (TK+)	plaque count		0.39 µg/mL
NC(=O)c1nnn([C@@H]2C[C@H](CO)C[C@H]2O)c1N	F	plaque count		>100 µM
Cc1cccc2c1OP(=O)(OC[C@H]1O[C@@H](n3cc(/C=C/Br)c(=O)[nH]c3=O)C[C@@H]1OC(=O)[C@@H](N)CC(C)C)OC2	KUPKA (TK+)	plaque count		0.72 µg/mL
O=C(Oc1ccccc1)P(=O)(O)O	C42	plaque count		500 µM
O=c1c2cnn(-c3ccccc3)c2nc(Nc2ccccc2)n1/N=C/c1ccc(F)cc1		plaque count		22 µg/mL
CCOc1ccc(-n2c(O)c(N=O)c(=O)[nH]c2=O)cc1	Leningrad/248/88	cytopathic effect		>100 µg/mL
N#Cc1c(SCCCCBr)nsc1-c1ccccc1	F	plaque count		>25 µg/mL
CC(=O)c1cn(C/C=C/C(O)CO)c(=O)[nH]c1=O	F	plaque count		100 µM
O=C1c2cc3ccoc3cc2O[C@@H]2COc3cc4c(cc3[C@H]12)OCO4	KOS	plaque count		>50 µg/mL
O=c1[nH]c(=O)n([C@H]2C[C@H](O)[C@@H](COP3(=O)OCc4cc(-c5ccccc5)ccc4O3)O2)cc1/C=C/Br	B2006 (TK-)	plaque count		>128 µg/mL
N#Cc1c(N2CCCCC2)nsc1-c1ccccc1	F	plaque count		>25 µg/mL
COc1cc2c(cc1-c1cc3cc4ccoc4cc3oc1=O)OCO2	KOS	plaque count		>50 µg/mL
COc1ccc(-c2cc(=O)c3c(O)cc(O)cc3o2)cc1				>20 µg/mL

Repeating the final 6 entries:

structure | strain or isolate | read by | conditions | result
CC(=O)c1cn(C/C=C/C(O)CO)c(=O)[nH]c1=O | F | plaque count |  | 100 µM
O=C1c2cc3ccoc3cc2O[C@@H]2COc3cc4c(cc3[C@H]12)OCO4 | KOS | plaque count |  | >50 µg/mL
O=c1[nH]c(=O)n([C@H]2C[C@H](O)[C@@H](COP3(=O)OCc4cc(-c5ccccc5)ccc4O3)O2)cc1/C=C/Br | B2006 (TK-) | plaque count |  | >128 µg/mL
N#Cc1c(N2CCCCC2)nsc1-c1ccccc1 | F | plaque count |  | >25 µg/mL
COc1cc2c(cc1-c1cc3cc4ccoc4cc3oc1=O)OCO2 | KOS | plaque count |  | >50 µg/mL
COc1ccc(-c2cc(=O)c3c(O)cc(O)cc3o2)cc1 |  |  |  | >20 µg/mL